# RC index of single-base changes in HIV-1 Gag

From the data files of Al-Mawsawi et al. 2014, doi:10.1186/s12977-014-0124-6.

Protein: Gag of HIV-1 NL4-3, numbered from its first residue. Gag is numbered as the whole polyprotein.
"Other frame" gives the effect on an overlapping gene as the source lists it; other overlaps (genes, RNA elements) are not shown.

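Random point mutant libraries of HIV-1 NL4-3, one for each of seven fragments, were passaged in CEM T lymphocytes. The RC index is the frequency of a change after passage round 2 divided by its frequency in the plasmid library.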

RC index: lower means poorer replication; rough cut-offs are 0.1 (lethal) and 0.2 (tolerated). A change reads original residue, position, new residue. Input reads are the counts in the plasmid library. Clones carried about five changes per kilobase, which can drag down the index of neutral changes. An index over 1, which the authors read as above wild type, was rare (1.9% of all changes in the genome). Nucleotide positions follow pNL4-3.

| # | substitution | base | region | other frame | input reads | RC index |
|---|---|---|---|---|---|---|
| 1 | M228T | T1472C | CA | none | 344 | 0.362 |
| 2 | P231Q | C1481A | CA | none | 69 | 0.405 |
| 3 | S77T | T1018A | MA | none | 472 | 0.0681 |
| 4 | M198L | A1381T | CA | none | 411 | 0.0389 |
| 5 | V135L | G1192C | CA | none | 68 | 0.0323 |
| 6 | G338R | G1801A | CA | none | 88 | 0.319 |
| 7 | M171V | A1300G | CA | none | 326 | 0.0763 |
| 8 | R444S | G2121C | p1 / p6* | p6* A5P | 64 | 0.0331 |
| 9 | T204N | C1400A | CA | none | 233 | 0.0646 |
| 10 | K26M | A866T | MA | none | 358 | 0.0396 |
| 11 | N372H | A1903C | p2 | none | 191 | 0.00730 |
| 12 | I401T | T1991C | NC p7 | none | 74 | 0.149 |
| 13 | T318S | A1741T | CA | none | 333 | 0.0476 |
| 14 | T81S | A1030T | MA | none | 129 | 0.0249 |
| 15 | T240S | A1507T | CA | none | 308 | 0.0209 |
| 16 | T186S | C1346G | CA | none | 229 | 0.0233 |
| 17 | Q379L | A1925T | NC p7 | none | 286 | 0.0110 |
| 18 | D183H | G1336C | CA | none | 76 | 0.0467 |
| 19 | Q116K | C1135A | MA | none | 53 | 0.0414 |
| 20 | L75P | T1013C | MA | none | 282 | 0.0912 |
| 21 | I261F | A1570T | CA | none | 225 | 0.0975 |
| 22 | R444G | A2119G | p1 / p6* | p6* K4R | 632 | 0.104 |
| 23 | I285V | A1642G | CA | none | 463 | 0.101 |
| 24 | T70S | A997T | MA | none | 311 | 0.0310 |
| 25 | A360E | C1868A | CA | none | 101 | 0.0276 |
| 26 | Q136E | C1195G | CA | none | 154 | 0.0428 |
| 27 | M200R | T1388G | CA | none | 230 | 0.0597 |
| 28 | N109T | A1115C | MA | none | 40 | 0.0804 |
| 29 | R232T | G1484C | CA | none | 46 | 0.0935 |
| 30 | E319V | A1745T | CA | none | 105 | 0.0431 |
| 31 | D96V | A1076T | MA | none | 186 | 0.0346 |
| 32 | D93E | T1068A | MA | none | 295 | 0.599 |
| 33 | K103M | A1097T | MA | none | 552 | 0.0349 |
| 34 | Q324R | A1760G | CA | none | 273 | 0.0332 |
| 35 | V370L | G1897T | p2 | none | 393 | 0.0142 |
| 36 | G338V | G1802T | CA | none | 62 | 0.0943 |
| 37 | G233R | G1486A | CA | none | 152 | 0.354 |
| 38 | L283P | T1637C | CA | none | 667 | 0.0625 |
| 39 | L8F | A813T | MA | none | 247 | 0.0548 |
| 40 | N153K | T1248G | CA | none | 38 | 0.0578 |
| 41 | P445S | C2122T | p1 / p6* | p6* A5V | 625 | 0.115 |
| 42 | N124S | A1160G | MA | none | 115 | 0.0764 |
| 43 | P255H | C1553A | CA | none | 311 | 0.155 |
| 44 | H358L | A1862T | CA | none | 284 | 0.00982 |
| 45 | S111T | G1121C | MA | none | 278 | 0.0765 |
| 46 | E107K | G1108A | MA | none | 293 | 0.296 |
| 47 | Q69E | C994G | MA | none | 30 | 0.107 |
| 48 | M200I | G1389C | CA | none | 85 | 0.185 |
| 49 | S77P | T1018C | MA | none | 112 | 0.144 |
| 50 | I333T | T1787C | CA | none | 253 | 0.0673 |
| 51 | F383Y | T1937A | NC p7 | none | 443 | 0.0284 |
| 52 | L215W | T1433G | CA | none | 87 | 0.0494 |
| 53 | H219P | A1445C | CA | none | 73 | 0.0294 |
| 54 | A120D | C1148A | MA | none | 128 | 0.103 |
| 55 | T332N | C1784A | CA | none | 58 | 0.499 |
| 56 | P166Q | C1286A | CA | none | 91 | 0.429 |
| 57 | L50I | C937A | MA | none | 186 | 0.0654 |
| 58 | I273L | A1606T | CA | none | 422 | 0.0364 |
| 59 | H33N | C886A | MA | none | 38 | 0.213 |
| 60 | M171T | T1301C | CA | none | 241 | 0.0368 |
| 61 | F44L | C921A | MA | none | 213 | 0.190 |
| 62 | C87R | T1048C | MA | none | 304 | 0.0740 |
| 63 | V143I | G1216A | CA | none | 565 | 0.463 |
| 64 | E99G | A1085G | MA | none | 279 | 0.0576 |
| 65 | A5P | G802C | MA | none | 34 | 0.171 |
| 66 | V390I | G1957A | NC p7 | none | 162 | 0.349 |
| 67 | P48S | C931T | MA | none | 291 | 0.0766 |
| 68 | I273V | A1606G | CA | none | 331 | 0.0862 |
| 69 | A360V | C1868T | CA | none | 494 | 0.0706 |
| 70 | G193V | G1367T | CA | none | 109 | 0.147 |
| 71 | K18N | A843T | MA | none | 360 | 0.0550 |
| 72 | I147L | A1228T | CA | none | 377 | 0.489 |
| 73 | I104K | T1100A | MA | none | 582 | 0.0166 |
| 74 | K112E | A1123G | MA | none | 454 | 0.0937 |
| 75 | A45T | G922A | MA | none | 493 | 0.173 |
| 76 | N80Y | A1027T | MA | none | 66 | 0.146 |
| 77 | H194R | A1370G | CA | none | 252 | 0.0282 |
| 78 | N447S | A2129G | p1 / p6* | p6* silent | 612 | 0.0381 |
| 79 | T239S | C1505G | CA | none | 124 | 0.0173 |
| 80 | I19V | A844G | MA | none | 398 | 0.0299 |
| 81 | A37V | C899T | MA | none | 305 | 0.399 |
| 82 | K113T | A1127C | MA | none | 133 | 0.500 |
| 83 | I376V | A1915G | p2 | none | 267 | 0.0353 |
| 84 | N432S | A2084G | NC p7 | none | 499 | 0.0297 |
| 85 | Y86N | T1045A | MA | none | 422 | 0.0229 |
| 86 | G354W | G1849T | CA | none | 200 | 0.0526 |
| 87 | R214I | G1430T | CA | none | 391 | 0.0990 |
| 88 | I333N | T1787A | CA | none | 513 | 0.0432 |
| 89 | V88E | T1052A | MA | none | 429 | 0.0225 |
| 90 | A197G | C1379G | CA | none | 115 | 0.0309 |
| 91 | K314R | A1730G | CA | none | 226 | 0.0300 |
| 92 | D102G | A1094G | MA | none | 166 | 0.0194 |
| 93 | A209D | C1415A | CA | none | 283 | 0.0304 |
| 94 | T303I | C1697T | CA | none | 139 | 0.195 |
| 95 | K110E | A1117G | MA | none | 219 | 0.0440 |
| 96 | Y262C | A1574G | CA | none | 172 | 0.0766 |
| 97 | M250I | G1539A | CA | none | 374 | 0.329 |
| 98 | D284G | A1640G | CA | none | 839 | 0.119 |
| 99 | L321M | T1750A | CA | none | 241 | 0.0469 |
| 100 | R384S | G1941T | NC p7 | none | 96 | 0.164 |
| 101 | G226A | G1466C | CA | none | 83 | 0.104 |
| 102 | A366S | G1885T | p2 | none | 286 | 0.0536 |
| 103 | Q136P | A1196C | CA | none | 35 | 0.0627 |
| 104 | M200I | G1389T | CA | none | 157 | 0.100 |
| 105 | C416S | T2035A | NC p7 | none | 197 | 0.0323 |
| 106 | V143L | G1216C | CA | none | 128 | 0.0686 |
| 107 | L283R | T1637G | CA | none | 190 | 0.0231 |
| 108 | T151S | A1240T | CA | none | 239 | 0.0551 |
| 109 | G62A | G974C | MA | none | 41 | 0.148 |
| 110 | T70I | C998T | MA | none | 360 | 0.161 |
| 111 | A237P | G1498C | CA | none | 162 | 0.0796 |
| 112 | L363S | T1877C | CA | none | 527 | 0.0185 |
| 113 | R20P | G848C | MA | none | 372 | 0.0160 |
| 114 | G446V | G2126T | p1 / p6* | p6* R6S | 174 | 0.0731 |
| 115 | N153S | A1247G | CA | none | 274 | 0.0401 |
| 116 | K157N | A1260T | CA | none | 937 | 0.0290 |
| 117 | C330R | T1777C | CA | none | 270 | 0.0754 |
| 118 | G233E | G1487A | CA | none | 388 | 0.139 |
| 119 | S241G | A1510G | CA | none | 474 | 0.0635 |
| 120 | L175F | A1314T | CA | none | 481 | 0.0406 |
| 121 | D121V | A1151T | MA | none | 311 | 0.0282 |
| 122 | L152S | T1244C | CA | none | 173 | 0.0508 |
| 123 | A37P | G898C | MA | none | 98 | 0.0414 |
| 124 | E74Q | G1009C | MA | none | 32 | 0.100 |
| 125 | E74D | A1011T | MA | none | 231 | 0.0278 |
| 126 | M198I | G1383T | CA | none | 94 | 0.0945 |
| 127 | A209T | G1414A | CA | none | 575 | 0.127 |
| 128 | G357C | G1858T | CA | none | 291 | 0.0383 |

14 of these entries, quoted again:

substitution	base	region	other frame	input reads	RC index
K18N	A843T	MA	none	360	0.0550
V390I	G1957A	NC p7	none	162	0.349
T186S	C1346G	CA	none	229	0.0233
A366S	G1885T	p2	none	286	0.0536
E319V	A1745T	CA	none	105	0.0431
T81S	A1030T	MA	none	129	0.0249
T318S	A1741T	CA	none	333	0.0476
M198L	A1381T	CA	none	411	0.0389
E74Q	G1009C	MA	none	32	0.100
V143I	G1216A	CA	none	565	0.463
C87R	T1048C	MA	none	304	0.0740
G354W	G1849T	CA	none	200	0.0526
N124S	A1160G	MA	none	115	0.0764
N447S	A2129G	p1 / p6*	p6* silent	612	0.0381